Assay results reported in publication PMC12255788, “Intracellular pathogen effector reprograms host gene expression by inhibiting mRNA decay” (Nature Communications, 2025).

What was measured:
[1] = target: His6-SUMO-NOT8 (human, UniProt Q9UFF9 1-292); assay: ITC
[2] = target: His6-SUMO-NOT7 (human, UniProt Q9UIV1 1-285); assay: ITC

B1: His6-PieF (natural protein)
chain: MKRLIICNGNKLTVCTQAISSGGIVEKYTPIFSLTKESDNELTLELSGVARGYYIIPSELTSSQARAAHLITLLTRAEESQTTDMHKILNSFVSGKITSGSMFNFENDGSFKREPEEAYNLINKI
Which results are given for B1?
Kd [1]: ~24 nM; Kd [2]: ~24 nM
